Reference: PubChem BioAssay AID624099 (ICCB-Longwood, 2012)
Aim: 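Human genes that papillomavirus E2 requires to repress the HPV18 LCR promoter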 (primary screen). System: human C33A cervical carcinoma cells (HPV-negative) stably expressing BPV1 E2 and an HPV18 LCR luciferase reporter. Reagent: siRNA pool against human genes, 40 nM. Timing: 72 h. Detection: 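Per-well luciferase luminescence, z-scored on each plate against the plate mean and SD with control wells left out, then averaged across three replicate plates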. Reading the numbers: mean z-score and z-score: higher = stronger reporter signal, weaker E2 silencing. Active means: 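Hit if mean z-score reaches 2 and two or more of three replicate z-scores also reach 2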.
The whole screen tested about 21,000 reagents; this is a random part of them. Over the whole deposit, 497 (2.4%) got an active call. 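Higher z means weaker E2 silencing; only reporter increases were scored, and knock-downs that hurt cell survival may mask genuine repressor factors.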 Unmarked entries are inactive. The numbers tell different reagents against one gene apart.

| target gene | pool no. | mean z-score | z-score, replicate A | z-score, replicate B | z-score, replicate C |
| --- | --- | --- | --- | --- | --- |
| DIRC1 | 1 | 0.28 | 0.35 | 0.41 | 0.07 |
| ACP7 | 1 | -0.67 | -0.76 | -0.34 | -0.91 |
| ASAH2 | 1 | -1.13 | -1.2 | -1.01 | -1.17 |
| KLF15 | 1 | -1.55 | -1.38 | -1.56 | -1.72 |
| LOC389671 (retired record) | 1 | -0.63 | -0.99 | -0.7 | -0.2 |
| ZNF451 | 1 | -0.35 | -0.66 | -0.08 | -0.31 |
| OR8J1 | 1 | -0.53 | -0.46 | -0.59 | -0.55 |
| TMCC2 | 1 | -1.18 | -1.13 | -1.11 | -1.31 |
| MRGPRG-AS1 | 1 | 0.59 | 0.46 | 0.74 | 0.57 |
| DDT | 1 | 0.39 | 0.06 | 0.38 | 0.73 |
| LOC389666 (retired record) | 1 | -0.07 | 0.2 | -0.14 | -0.27 |
| LY6G5C | 1 | -0.7 | -0.98 | -0.63 | -0.48 |
| RDH11 | 1 | -0.59 | -0.79 | -0.27 | -0.71 |
| TMEM175 | 1 | 1.11 | 1 | 1.3 | 1.05 |
| MESP2 | 1 | -0.79 | -1.01 | -0.95 | -0.4 |
| NF2 | 1 | 0.74 | 0.65 | 0.63 | 0.94 |
| STMND1 | 1 | -0.67 | -0.94 | -0.32 | -0.75 |
| TBC1D32 | 1 | -0.42 | 0.04 | -0.44 | -0.86 |
| RNF34 | 1 | -0.07 | 0.1 | -0.1 | -0.2 |
| ANP32B | 1 | 0.73 | 0.52 | 0.87 | 0.79 |
| EIF3FP2 | 1 | -0.81 | -0.72 | -0.99 | -0.71 |
| SORCS3 | 1 | 0.4 | 0.39 | 0.24 | 0.57 |
| DENND5A | 1 | 0.18 | 0.08 | 0.4 | 0.04 |
| POTEH | 1 | 1.76 | 1.99 | 1.93 | 1.37 |
| AMY2A | 1 | -0.21 | -0.16 | -0.12 | -0.34 |
| FLJ44477 (retired record) | 1 | 0.03 | -0.12 | 0.18 | 0.03 |
| KRT82 | 1 | -0.14 | -0.25 | -0.34 | 0.18 |
| DNASE2B | 1 | -0.34 | -0.47 | -0.78 | 0.22 |
| RIPK4 | 1 | 0.48 | 0.33 | 0.78 | 0.33 |
| RDH5 | 1 | 0.77 | 1.03 | 0.65 | 0.63 |
| CDY1 | 1 | -0.76 | -1.4 | -0.41 | -0.48 |
| RBKS | 1 | 0.53 | 0.08 | 0.61 | 0.91 |
| WASH2P | 1 | -0.5 | -0.37 | -0.61 | -0.53 |
| MAGI1-IT1 | 1 | 0.6 | 1.04 | 0.48 | 0.29 |
| TMEM132E-DT | 1 | -0.42 | -0.93 | -0.08 | -0.26 |
| GPR150 | 1 | -0.15 | 0.04 | -0.38 | -0.12 |
| SPINT2 | 1 | 0.79 | 0.86 | 0.63 | 0.87 |
| GPN3 | 1 | 0.12 | -0.38 | 0.37 | 0.37 |
| CPVL | 1 | -1.11 | -1.24 | -1.19 | -0.9 |
| SCUBE2 | 1 | 0.32 | 0.85 | 0.42 | -0.3 |
| SRD5A1 | 1 | 0.46 | 0.33 | 0.55 | 0.48 |
| GASK1B | 1 | 1.18 | 1.42 | 0.87 | 1.24 |
| CD226 | 1 | 2.87 (active) | 2.97 | 2.67 | 2.98 |
| MEOX2 | 1 | 0.53 | 0.73 | 0.36 | 0.49 |
| CST5 | 1 | -0.28 | 0 | -0.39 | -0.46 |
| PWP2 | 1 | 0.84 | 0.85 | 0.79 | 0.88 |
| H3C4 | 1 | 0.16 | 0.15 | 0.29 | 0.03 |
| TEPSIN | 1 | 0.87 | 0.71 | 0.6 | 1.3 |
| FOXC2 | 1 | -0.15 | -0.34 | 0.31 | -0.41 |
| MB21D2 | 1 | -0.45 | -0.67 | -0.31 | -0.38 |
| SCGB1D2 | 1 | -0.05 | 0.43 | -0.33 | -0.24 |
| GALNS | 1 | -0.29 | -0.06 | -0.25 | -0.56 |
| SORBS2 | 1 | 2.85 (active) | 2.86 | 3 | 2.69 |
| TTLL9 | 1 | -0.11 | 0.2 | -0.4 | -0.13 |
| PYCR3 | 1 | 1.2 | 1.32 | 1.19 | 1.1 |
| GPR6 | 1 | 0.36 | 0.32 | 0.34 | 0.42 |
| TRIM4 | 1 | -0.43 | -0.6 | -0.33 | -0.37 |
| NCBP2 | 1 | 0.56 | 0.42 | 0.81 | 0.45 |
| INO80C | 1 | -0.58 | -0.45 | -0.49 | -0.82 |
| FBXO15 | 1 | 1.27 | 1.19 | 1.03 | 1.6 |
| SLC34A3 | 1 | -0.19 | 0.24 | -0.72 | -0.1 |
| IL6ST | 1 | -1.15 | -1.19 | -1.16 | -1.1 |
| LOC402580 (retired record) | 1 | 0.84 | 0.85 | 1.23 | 0.44 |
| USP17L24 | 1 | 1.13 | 1.45 | 0.75 | 1.19 |
| USP17L24 | 2 | 0.87 | 1.18 | 0.57 | 0.88 |
| USP17L24 | 3 | 0.91 | 1.26 | 0.88 | 0.59 |
| USP17L24 | 4 | 1.33 | 1.26 | 1.31 | 1.43 |
| USP17L24 | 5 | 0.48 | 0.22 | 0.58 | 0.63 |
| USP17L24 | 6 | -0.29 | 0.41 | -1.64 | 0.35 |
| RPL10P9 | 1 | -4.68 | -4.95 | -4.56 | -4.53 |
| RCBTB2 | 1 | 0.91 | 1 | 1.19 | 0.54 |
| FLT3 | 1 | -0.39 | -0.41 | -0.51 | -0.27 |
| SLC5A9 | 1 | -0.75 | -0.65 | -0.81 | -0.8 |

Ordered by “z-score, replicate A” (ascending): some entries from above
| target gene | pool no. | mean z-score | z-score, replicate A | z-score, replicate B | z-score, replicate C |
| --- | --- | --- | --- | --- | --- |
| CDY1 | 1 | -0.76 | -1.4 | -0.41 | -0.48 |
| WASH2P | 1 | -0.5 | -0.37 | -0.61 | -0.53 |
| RBKS | 1 | 0.53 | 0.08 | 0.61 | 0.91 |
| RDH5 | 1 | 0.77 | 1.03 | 0.65 | 0.63 |
| MAGI1-IT1 | 1 | 0.6 | 1.04 | 0.48 | 0.29 |
